Compound potency records, mixed from different reports. Data source: NIAID ChemDB in PubChem.

All rows: tests in culture; organism: Aspergillus niger; measure: zone

Rows are shuffled and stem from different studies.

smiles | tested at | method | strain or isolate | value
CS(=O)(=O)c1nc(N)c(C#N)c(-c2ccccc2)n1 | 25 µg/mL | agar diffusion | MTCC 282 | 18 mm
Cc1ccc2c(c1)C1(C(=O)N2CCCCCCN2C(=O)C3(SCC(=O)N3c3c(C)n(C)n(-c4ccccc4)c3=O)c3cc(F)ccc32)c2c(C)nn(-c3ccccc3)c2Oc2c1c(C)nn2-c1ccccc1 | 100 µg/mL | agar diffusion | MTCC 282 | 17 mm
CC(=O)c1cc(-c2nnc(-c3sc4ccccc4c3Cl)o2)ccc1O | 5 µg/disc |  |  | 11 mm
O=C(NN=Cc1ccc(F)cc1)c1snnc1C(F)(F)F | 150 µg/mL | agar diffusion / agar | MTCC 1344 | 0 mm
COc1cc(C2OC(c3sc4ccc(Cl)cc4c3Cl)=NN2C(C)=O)cc(OC)c1OC | 40 µg/mL | agar diffusion / agar | ATCC 9029 | 20 mm
O=C(CNc1nncs1)COc1ccc(-c2nc(-c3ccccc3)c(-c3ccccc3)s2)cc1 | 100 µg/mL | agar diffusion / agar | ATCC 16404 | 20 mm
Cc1[nH]n(C(=O)c2sc3ccc(Cl)cc3c2Cl)c(=O)c1N=Nc1cccc([N+](=O)[O-])c1 | 40 µg/mL | agar diffusion / agar | ATCC 9029 | 10 mm
CC(=O)N1N=C(c2sc3ccccc3c2Cl)OC1c1ccc(F)cc1 | 5 µg/disc |  |  | 11 mm
COC1=CC(=O)C[C@@H](C)[C@]12Oc1c(Cl)c(OC)cc(OC)c1C2=O | 100 µg/mL | agar diffusion |  | 28 mm
CCOC(=O)Cn1c(C(F)(F)C(F)(F)F)nc2ccc(C(=O)c3ccccc3)cc21 | 500 µg/mL |  | MTCC 1344 | 900 mm
Cc1[nH]n(C(=O)c2sc3ccc(Cl)cc3c2Cl)c(=O)c1N=Nc1ccc(F)cc1 | 40 µg/mL | agar diffusion / agar | ATCC 9029 | 16 mm
O=C(COc1ccc(-c2nc(-c3ccccc3)c(-c3ccccc3)s2)cc1)CN1CCCCC1 | 100 µg/mL | agar diffusion / agar | ATCC 16404 | 18 mm
CCOCc1c(O)cc2c(c1O)C(=O)c1ccccc1C2=O | 13.3 µg/disc | agar diffusion |  | 0 mm
O=[N+]([O-])c1ccc(/C=C/C(=NCCCn2ccnc2)c2ccccc2O)cc1.[Cl][Cu] | 100 µg/mL | agar diffusion |  | 18 mm
Cc1ccc2c(c1)C1(C(=O)N2CCCCCCN2C(=O)C3(SCC(=O)N3c3c(C)n(C)n(-c4ccccc4)c3=O)c3ccccc32)c2c(C)nn(-c3ccccc3)c2Oc2c1c(C)nn2-c1ccccc1 | 100 µg/mL | agar diffusion | MTCC 282 | 17 mm
Cc1c(O)cc2c(c1O)C(=O)c1ccccc1C2=O | 13.3 µg/disc | agar diffusion |  | 0 mm
Cc1nc2ccccc2n(CC(=O)NN2C(=O)CSC2c2ccc(N(C)C)cc2)c1=O | 50 µg/mL |  |  | 11 mm
O=C(O[C@H]1Cc2c(O)cc(O)cc2O[C@@H]1c1cc(O)c(O)c(O)c1)c1cc(O)c(O)c(O)c1 | 100 µg/disc | agar diffusion / agar | ATCC64958 | 10 mm
O=C(NN=Cc1ccco1)c1snnc1C(F)(F)F | 100 µg/mL | agar diffusion / agar | MTCC 1344 | 0 mm
Clc1nc2ccccc2cc1CNC1CCCCC1 | 200 µg/mL | agar diffusion | MTCC 281 | 6.27 mm
CC(=O)c1ccc(-c2nnc(-c3sc4ccccc4c3Cl)o2)cc1 | 5 µg/disc |  |  | 10 mm
CC(=O)Nc1nc(C)c(-c2n[nH]c(=S)n2N2C(=O)CSC2c2ccc(N(C)C)cc2)s1 | 100 µg/mL | agar diffusion |  | 19 mm
OC(Cn1cncn1)(Cn1cncn1)c1ccc(F)cc1F | 3.125 µg/mL | agar diffusion / visual reading | MTCC 281 | 14 mm
Clc1ccc(-c2nnc(-c3sc4ccccc4c3Cl)o2)cc1 | 5 µg/disc |  |  | 10 mm
CC1(C)CC2C3=CCC4[C@@]5(C)CCC(=O)C(C)(C)C5CC[C@@]4(C)[C@]3(C)C[C@@H](O)[C@@]2(CO)[C@@H](O)C1 | 30 mg/disc | agar diffusion | UPCC 3701 | 0 mm
COc1ccc2nc3n4c(c5ccccc5c-3c2c1)NN=C(c1ccccc1)C4 | 25 µg/mL | agar diffusion / visual reading | MTCC 281 | 7 mm
Oc1ccccc1C(/C=C/c1ccccc1)=NCCCn1ccnc1.[Cl][Ni] | 100 µg/mL | agar diffusion |  | 15 mm
CS(=O)(=O)c1nc(N)c(C#N)c(-c2ccc(Cl)cc2)n1 | 50 µg/mL | agar diffusion | MTCC 282 | 19 mm
c1ccc(-c2nc(-c3ccc(N4CCCCC4)cc3)sc2-c2ccccc2)cc1 | 100 µg/mL | agar diffusion / agar | ATCC 16404 | 19 mm
CC(=O)Nc1nc(C)c(-c2n[nH]c(=S)n2N2C(=O)CSC2c2ccccc2)s1 | 100 µg/mL | agar diffusion |  | 19 mm
CCCCNCc1cc2ccccc2nc1Cl | 200 µg/mL | agar diffusion | MTCC 281 | 9.47 mm
CC(=O)N1CCN(c2ccc(OC[C@H]3CO[C@](Cn4ccnc4)(c4ccc(Cl)cc4Cl)O3)cc2)CC1 | 10 mg/disc | agar diffusion |  | 10.3 mm
O=[N+]([O-])c1ccc2nc(C(F)(F)F)n(CCCCl)c2c1 | 500 µg/mL |  | MTCC 1344 | 350 mm
CS(=O)(=O)c1nc(N)c(C#N)c(-c2ccccc2O)n1 | 50 µg/mL | agar diffusion | MTCC 282 | 18 mm
O=C(NN=Cc1ccccc1)c1snnc1C(F)(F)F | 100 µg/mL | agar diffusion / agar | MTCC 1344 | 0 mm
Clc1ccc(Nc2ccc(-c3nc(-c4ccccc4)c(-c4ccccc4)s3)cc2)cc1 | 100 µg/mL | agar diffusion / agar | ATCC 16404 | 22 mm
O=C(NN1C(=O)CSC1C1C(c2ccccc2)=Nc2ccccc21)N1c2ccccc2C=Cc2ccccc21 | 1000 µg/mL | agar diffusion | MTCC 281 | 3 mm
O=c1c2ccccc2c(-c2ccccc2)nn1-c1nc2[nH]c3ccc(Cl)cc3c2c2ccccc12 | 6.25 µg/mL | agar diffusion / visual reading | MTCC 281 | 9 mm
CN(Cc1cc2ccccc2nc1Cl)c1ccc(Cl)c(Cl)c1 | 200 µg/mL | agar diffusion | MTCC 281 | 21.13 mm
Fc1ccc(-c2nnc(-c3sc4ccccc4c3Cl)o2)cc1 | 5 µg/disc |  |  | 12 mm
O=C(NN=C1CCCCCC1)c1snnc1C(F)(F)F | 100 µg/mL | agar diffusion / agar | MTCC 1344 | 0 mm
Cc1ccc2c(c1)C1(C(=O)N2CCCCCCN2C(=O)C3(SCC(=O)N3c3c(C)n(C)n(-c4ccccc4)c3=O)c3cc(C)ccc32)c2c(C)nn(-c3ccccc3)c2Oc2c1c(C)nn2-c1ccccc1 | 100 µg/mL | agar diffusion | MTCC 282 | 16 mm
Cc1nc2ccccc2n(CC(=O)NN2C(=O)CSC2c2ccccc2O)c1=O | 100 µg/mL |  |  | 13 mm
C[C@@H]1O[C@@H](O[C@@H]2[C@@H](O)[C@H](OCCc3ccc(O)c(O)c3)O[C@H](CO)[C@H]2OC(=O)/C=C/c2ccc(O)c(O)c2)[C@H](O)[C@H](O)[C@H]1O | 100 µg/disc | agar diffusion / agar | ATCC64958 | 5.5 mm
CC(C)(C)c1nnc2c3ccccc3c3c4cc(Cl)ccc4[nH]c3n12 | 12.5 µg/mL | agar diffusion / visual reading | MTCC 281 | 9 mm
O=C(NN=Cc1ccc(Br)cc1)c1snnc1C(F)(F)F | 100 µg/mL | agar diffusion / agar | MTCC 1344 | 0 mm
Cc1[nH]n(C(=O)c2sc3ccc(Cl)cc3c2Cl)c(=O)c1N=Nc1ccccc1[N+](=O)[O-] | 40 µg/mL | agar diffusion / agar | ATCC 9029 | 10 mm
Cc1ccc(Oc2ccc(-c3nc4ccccc4c4cc5ccccc5n34)cc2)cc1 | 1000 µg/mL | agar diffusion |  | 10 mm
Clc1ccc2nc3n4c(c5ccccc5c-3c2c1)NN=C(c1ccccc1)C4 | 50 µg/mL | agar diffusion / visual reading | MTCC 281 | 6 mm
Cc1nn(-c2ccccc2)c2c1C1(C(=O)N(CCCCCCN3C(=O)C4(SCC(=O)N4c4c(C)n(C)n(-c5ccccc5)c4=O)c4ccccc43)c3ccc(F)cc31)c1c(C)nn(-c3ccccc3)c1O2 | 100 µg/mL | agar diffusion | MTCC 282 | 16 mm
Cc1ccc(C2=NNc3c4ccccc4c4c5cc(Cl)ccc5nc-4n3C2)cc1 | 12.5 µg/mL | agar diffusion / visual reading | MTCC 281 | 6 mm
CSC1=NC(c2ccccc2)C(C#N)=C(N)N1 | 50 µg/mL | agar diffusion | MTCC 282 | 16 mm
O=[N+]([O-])c1ccc2nc(C(F)(F)C(F)(F)F)n(CCCCCl)c2c1 | 500 µg/mL |  | MTCC 1344 | 700 mm
O=C(NN=Cc1ccc([N+](=O)[O-])cc1)c1snnc1C(F)(F)F | 150 µg/mL | agar diffusion / agar | MTCC 1344 | 0 mm
O=C(NN=CC1C(c2ccccc2)=Nc2ccc(Cl)cc21)N1c2ccccc2C=Cc2ccccc21 | 1000 µg/mL | agar diffusion | MTCC 281 | 13 mm
CC1OC2=C(C(=O)c3ccccc3C2=O)C1(C)C.O=C(O)c1cc(O)c(O)c(O)c1 | 100 µg/disc | agar diffusion / agar | ATCC64958 | 39.8 mm
Cc1nc2ccccc2n(CC(=O)NN2C(=O)CSC2c2ccc(O)cc2)c1=O | 100 µg/mL |  |  | 20 mm
Clc1ccc(COC(Cn2ccnc2)c2ccc(Cl)cc2Cl)c(Cl)c1 | 150 µg/mL | agar diffusion / agar |  | 4 mm
CN(Cc1cc2ccccc2nc1Cl)c1cccc(Cl)c1 | 200 µg/mL | agar diffusion | MTCC 281 | 15.21 mm
CS(=O)(=O)c1nc(N)c(C#N)c(/C=C\c2ccccc2)n1 | 50 µg/mL | agar diffusion | MTCC 282 | 19 mm
Cc1c(N2C(=O)CSC23C(=O)N(CCCCCCBr)c2ccccc23)c(=O)n(-c2ccccc2)n1C | 100 µg/mL | agar diffusion | MTCC 282 | 15 mm
COc1cc2c(c(O)c1C)C(=O)c1c(ccc(OC)c1O)C2=O | 13.3 µg/disc | agar diffusion |  | <6.2 mm
O=[N+]([O-])c1cccc(-c2nnc(-c3sc4ccccc4c3Cl)o2)c1 | 5 µg/disc |  |  | 11 mm
COc1ccc2[nH]c3c(c2c1)c1ccccc1c1nnc(C(C)(C)C)n13 | 3.125 µg/mL | agar diffusion / visual reading | MTCC 281 | 10 mm
CSC1=NC(c2ccccc2Cl)C(C#N)=C(N)N1 | 50 µg/mL | agar diffusion | MTCC 282 | 15 mm
COc1ccc(C2SCC(=O)N2NC(=O)Cn2c(=O)c(C)nc3ccccc32)cc1OC | 100 µg/mL |  |  | 17 mm
Cc1n[nH]c(=S)n1N=C/C=C/c1c(-c2ccc(F)cc2)c2ccccc2n1C(C)C | 500 µg/mL |  |  | 14 mm
CC(=O)c1cc(C2OC(c3sc4ccccc4c3Cl)=NN2C(C)=O)ccc1O | 5 µg/disc |  |  | 10 mm
Cc1ccc2[nH]c3nc(-n4[nH]c(=O)c5ccccc5c4=O)c4ccccc4c3c2c1 | 12.5 µg/mL | agar diffusion / visual reading | MTCC 281 | 9 mm
Cc1ccc(/C=C/C(=NCCCn2ccnc2)c2ccccc2O)cc1.[Cl][Ni] | 100 µg/mL | agar diffusion |  | 14 mm
COc1cccc(C2OC(c3sc4ccccc4c3Cl)=NN2C(C)=O)c1 | 5 µg/disc |  |  | 11 mm
O=C(NN=C1CCCCC1)c1snnc1C(F)(F)F | 100 µg/mL | agar diffusion / agar | MTCC 1344 | 0 mm
O=[N+]([O-])c1ccc(/C=C/C(=NCCCn2ccnc2)c2ccccc2O)cc1 | 100 µg/mL | agar diffusion |  | 16 mm
COc1ccc(C2OC(c3sc4ccc(Cl)cc4c3Cl)=NN2C(C)=O)cc1 | 40 µg/mL | agar diffusion / agar | ATCC 9029 | 19 mm
O=C(NN=CC1C(c2ccccc2)=Nc2ccccc21)N1c2ccccc2C=Cc2ccccc21 | 750 µg/mL | agar diffusion | MTCC 281 | 4 mm
COc1ccc(NCc2cc3ccccc3nc2Cl)cc1 | 200 µg/mL | agar diffusion | MTCC 281 | 10.76 mm
CSC1=NC(c2ccc(O)cc2)C(C#N)=C(N)N1 | 100 µg/mL | agar diffusion | MTCC 282 | 16 mm
Cc1c(N2C(=O)CSC23C(=O)N(CCCCCCBr)c2ccc(F)cc23)c(=O)n(-c2ccccc2)n1C | 100 µg/mL | agar diffusion | MTCC 282 | 16 mm
c1ccc(-c2nc(-c3ccc(N4CCCC4)cc3)sc2-c2ccccc2)cc1 | 100 µg/mL | agar diffusion / agar | ATCC 16404 | 23 mm

5 of the rows above, restated:

smiles,tested at,method,strain or isolate,value
CCCCNCc1cc2ccccc2nc1Cl,200 µg/mL,agar diffusion,MTCC 281,9.47 mm
CC(=O)c1ccc(-c2nnc(-c3sc4ccccc4c3Cl)o2)cc1,5 µg/disc,,,10 mm
Cc1nc2ccccc2n(CC(=O)NN2C(=O)CSC2c2ccccc2O)c1=O,100 µg/mL,,,13 mm
Clc1ccc(COC(Cn2ccnc2)c2ccc(Cl)cc2Cl)c(Cl)c1,150 µg/mL,agar diffusion / agar,,4 mm
Cc1[nH]n(C(=O)c2sc3ccc(Cl)cc3c2Cl)c(=O)c1N=Nc1ccc(F)cc1,40 µg/mL,agar diffusion / agar,ATCC 9029,16 mm

Zones are inhibition diameters on agar. Blank or dashed fields: not listed here.